This test addresses Human immunodeficiency virus type 1 integrase (Human immunodeficiency virus 1) (UniProt Q7ZJM1). Kind of test: Percentage inhibition of compound against 3'-processing of HIV-1 integrase at 100 ug/mL.

Chains of the proteins cited; added tags and fusions are not shown. Residues count along the entry.
UniProt Q7ZJM1, 1-288: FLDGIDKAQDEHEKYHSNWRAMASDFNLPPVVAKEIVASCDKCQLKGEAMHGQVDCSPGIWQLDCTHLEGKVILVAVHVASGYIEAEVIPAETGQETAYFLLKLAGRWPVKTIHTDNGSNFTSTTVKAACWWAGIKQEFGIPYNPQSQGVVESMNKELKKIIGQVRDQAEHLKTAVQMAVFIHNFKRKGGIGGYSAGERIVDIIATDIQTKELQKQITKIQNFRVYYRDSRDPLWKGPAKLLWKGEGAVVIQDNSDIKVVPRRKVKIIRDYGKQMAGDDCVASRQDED

As usually defined, the inhibition is the share of the control response that was lost under treatment. A high value points to strong suppression. Take `O=C(O)c1c([N+](=O)[O-])cc([N+](=O)[O-])c(-c2c([N+](=O)[O-])cc([N+](=O)[O-])c(C(=O)O)c2[N+](=O)[O-])c1[N+](=O)[O-]`: the inhibition was determined as 97.9%.

The values above are taken from ChEMBL document CHEMBL1129975, “Depsides and depsidones as inhibitors of HIV-1 integrase: discovery of novel inhibitors through 3D database searching” (J Med Chem, 1997).
